# Kdimer by position in the HIV-1 leader RNA

Data from the supplement of Ye et al. 2022, doi:10.1038/s41594-022-00746-2.

The 5' region of HIV-1 NL4-3 RNA (positions 1-437):
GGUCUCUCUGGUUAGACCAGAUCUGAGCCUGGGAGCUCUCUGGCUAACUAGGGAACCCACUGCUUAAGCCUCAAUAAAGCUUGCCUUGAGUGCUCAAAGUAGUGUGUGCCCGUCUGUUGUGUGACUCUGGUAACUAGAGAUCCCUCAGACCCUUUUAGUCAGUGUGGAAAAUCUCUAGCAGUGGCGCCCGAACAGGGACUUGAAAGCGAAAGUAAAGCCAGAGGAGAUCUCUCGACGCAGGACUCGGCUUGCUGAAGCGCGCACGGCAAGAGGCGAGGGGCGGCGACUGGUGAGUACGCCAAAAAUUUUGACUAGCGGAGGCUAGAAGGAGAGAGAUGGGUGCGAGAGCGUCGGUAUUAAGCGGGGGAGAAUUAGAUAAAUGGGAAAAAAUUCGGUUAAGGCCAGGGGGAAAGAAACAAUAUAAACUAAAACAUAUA

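Randomly mutated transcripts starting with one, two or three G (1G, 2G, 3G), capped or uncapped, were folded for 30 min at 37 °C. Monomer and dimer bands were cut from native gels after folding in high salt (300 mM KCl, 5 mM MgCl2) or low salt (40 mM KCl, 0.1 mM MgCl2). Mutation frequencies in the two bands give Kdimer.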

Scale: median log2 Kdimer over the changes at a position; positive = changes inhibit dimerization, negative = changes enhance it. One numbering serves 1G, 2G and 3G. A position is written with its base.

position	domain	2G uncapped high-salt	2G uncapped low-salt	3G capped high-salt	3G capped low-salt
A21	TAR	0.00	-0.03	0.06	-0.10
U22	TAR	0.02	0.04	0.16	0.10
C23	TAR	0.03	-0.17	0.41	-0.07
U24	TAR	0.16	-0.04	-0.12	-0.03
G25	TAR	-0.45	-0.57	-0.33	-0.40
A26	TAR	0.02	-0.07	-0.13	-0.07
G27	TAR	-0.51	-0.72	-0.90	-0.99
C28	TAR	-0.48	-0.76	-0.02	-0.08
C29	TAR	0.13	-0.01	0.18	0.09
U30	TAR	0.05	-0.09	-0.05	-0.04
G31	TAR	0.26	-0.04	0.09	-0.20
G32	TAR	0.01	-0.08	-0.08	-0.03
G33	TAR	0.08	-0.06	0.05	0.07
A34	TAR	0.11	0.06	0.01	0.13
G35	TAR	-0.28	-0.58	-0.59	-0.53
C36	TAR	-0.41	-0.22	-0.30	-0.41
U37	TAR	-0.25	-0.23	-0.27	-0.22
C38	TAR	-0.15	-0.13	-0.35	-0.01
U39	TAR	0.02	-0.21	-0.07	0.04
C40	TAR	0.13	0.09	0.05	-0.17
U41	TAR	-0.07	-0.66	-0.09	-0.19
G42	TAR	-0.18	-0.41	-0.47	-0.35
G43	TAR	-0.14	-0.15	-0.04	-0.08
C44	TAR	0.15	0.02	-0.01	0.02
U45	TAR	-0.10	-0.13	-0.09	-0.12
A46	TAR	-0.12	-0.36	-0.12	-0.16
A47	TAR	-0.13	-0.34	0.10	-0.06
C48	TAR	-0.06	-0.69	-0.11	-0.61
U49	TAR	0.07	-0.23	0.09	-0.03
A50	TAR	0.09	-0.32	0.00	-0.23
G51	TAR	0.07	-0.14	0.05	-0.01
G52	TAR	0.05	0.05	0.04	0.04
G53	TAR	0.07	0.09	-0.01	-0.12
A54	TAR	-0.35	-0.51	-0.15	-0.52
A55	TAR	0.11	0.14	0.10	0.09
C56	TAR	0.36	0.22	-0.03	0.12
C57	TAR	-0.08	-0.42	-0.71	-0.81
C58	PolyA	0.20	0.17	0.08	0.20
A59	PolyA	0.17	0.30	0.05	0.04
C60	PolyA	0.38	0.24	0.18	0.19
U61	PolyA	0.21	0.24	0.16	0.00
G62	PolyA	0.19	0.31	-0.01	0.05
C63	PolyA	0.29	0.06	0.02	-0.13
U64	PolyA	0.23	0.09	0.09	-0.12
U65	PolyA	0.15	0.44	0.28	0.10
A66	PolyA	0.13	-0.23	-0.16	-0.49
A67	PolyA	0.10	0.22	0.00	-0.08

A selection of 4 entries from above:

{"position": "C40", "domain": "TAR", "2G uncapped high-salt": 0.13, "2G uncapped low-salt": 0.09, "3G capped high-salt": 0.05, "3G capped low-salt": -0.17}
{"position": "A66", "domain": "PolyA", "2G uncapped high-salt": 0.13, "2G uncapped low-salt": -0.23, "3G capped high-salt": -0.16, "3G capped low-salt": -0.49}
{"position": "U45", "domain": "TAR", "2G uncapped high-salt": -0.10, "2G uncapped low-salt": -0.13, "3G capped high-salt": -0.09, "3G capped low-salt": -0.12}
{"position": "U65", "domain": "PolyA", "2G uncapped high-salt": 0.15, "2G uncapped low-salt": 0.44, "3G capped high-salt": 0.28, "3G capped low-salt": 0.10}